{"source": "PubChem BioAssay AID504761 – Drosophila RNAi Screening Center | 2011", "purpose": "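Insect host genes that dengue virus relies on to spread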 (primary screen)", "system": "D.Mel-2 cells from Drosophila", "knock-down reagent": "long dsRNA against Drosophila genes", "challenge": "infection with dengue virus type 2; dose and infection time not stated", "detection": "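Cells stained for dengue envelope protein and imaged; percent of infected cells per well on duplicate plates, ranked by infection, with stained nuclei counted for cell number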", "scale": "infection score: higher = more virus-infected cells", "hit rule": "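Low infection ranks in the two replicates (chance level up to 0.065) followed by a retest with a 1.5-fold or larger significant decrease, p below 0.05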", "meaning of the calls": "active = confirmed: knock-down lowers infection; inactive = not picked or not confirmed", "note": "The deposit covers about 22,000 reagents; shown is a random part of those with a known target gene and a result. Of all reagents, 116 (0.52%) are marked active. 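Calls depend on retest data that are not deposited; infection was ranked per plate without normalising between plates; the unit of the infection score is not given.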 Entries without a mark were called inactive. Further read-outs or replicates are left out here. Not stated in the record: the amount of reagent, the time to read-out."}
{"gene knocked down": "Cdk1", "amplicon": "DRSC03504", "infection score, replicate 1": 8.19}
{"gene knocked down": "CG33270", "amplicon": "DRSC10584", "infection score, replicate 1": 3.65}
{"gene knocked down": "cdm", "amplicon": "DRSC16213", "infection score, replicate 1": 14.6}
{"gene knocked down": "app", "amplicon": "DRSC09159", "infection score, replicate 1": 3.41}
{"gene knocked down": "app", "amplicon": "DRSC10246", "infection score, replicate 1": 2.29}
{"gene knocked down": "app", "amplicon": "DRSC10526", "infection score, replicate 1": 1.83}
{"gene knocked down": "app", "amplicon": "DRSC25682", "infection score, replicate 1": 3.82}
{"gene knocked down": "Mcad", "amplicon": "DRSC09871", "infection score, replicate 1": 9.95}
{"gene knocked down": "Mcad", "amplicon": "DRSC25980", "infection score, replicate 1": 5.43}
{"gene knocked down": "Elp5", "amplicon": "DRSC08547", "infection score, replicate 1": 1.87}
{"gene knocked down": "fd19B", "amplicon": "DRSC20688", "infection score, replicate 1": 1}
{"gene knocked down": "fd19B", "amplicon": "DRSC26447", "infection score, replicate 1": 6.35}

Look-ups from the list.
Under “infection score, replicate 1”, cdm [DRSC16213] reads 14.6
Under “infection score, replicate 1”, fd19B [DRSC26447] is entered as 6.35
